The target in the assay is Ler (LEE-encoded regulator), residues 3-116 (not stated (enterohemorrhagic or enteropathogenic Escherichia coli)). In words: […] (10 mM Tris, 100 mM NaCl, 7 mM MgCl2 pH 7.5), […] (2 ng/ul), […].

Take “Ler (LEE-encoded regulator), residues 3-116 (domain or fragment)”: the stoichiometry N (ratio to the Ler monomer (14.3 kDa)) was 4.7.

(Values after paper PMC3488262.)
